A mixed list of measured activities; the numbers were collected in NIAID ChemDB.

Shared fields: tests in culture; species: Mycobacterium tuberculosis

ECn is the concentration giving n% inhibition of infection, replication or growth. A number after MIC or MFC names an inhibition level or a share of isolates. MIC bound comes from a single tested concentration. Rows are shuffled and stem from different studies. Percent inhibition refers to the dose given; in toxicity tests it is the harm to the cells. Blank or dashed fields: not listed here.

SMILES	dose	setting	method	strain	measure	result
O=C(O)COc1ccc(-c2cccnc2)c(CN2CCN(c3ccccn3)CC2)c1	-	-	broth dilution	H37Rv (ATCC 27294)	MIC	32 µg/mL
Nc1nc(Cl)nc2c1ncn2[C@@H]1O[C@H](CO)[C@@H](O)[C@H]1O	-	-	-	H37Ra	MIC	12.5 µM
CC1=C(C(=O)Nc2ccc(Cl)cc2Cl)C(c2ccc(Cl)cc2)C(C(=O)Nc2ccc(Cl)cc2Cl)=C(C)N1	-	-	-	H37Rv	MIC	>6.25 µg/mL
CN1CCC[C@@H]1CCO[C@](C)(c1ccccc1)c1ccc(Cl)cc1	-	-	-	H37Rv	MIC	16 µg/mL
Cc1cn([C@H]2C[C@H](Br)[C@@H](CO)O2)c(=O)[nH]c1=O	-	-	-	H37Ra	EC50	7.5 µg/mL
NC(=O)C(=CNC(=S)Nc1ccc(S(N)(=O)=O)cc1)C(N)=O	6.25 µg/mL	-	resazurin	H37Rv	inhibition	5%
COc1ccccc1C1C(C(=O)Nc2ccc(F)cc2)=C(C)NC(C)=C1C(=O)Nc1ccc(F)cc1	-	-	-	H37Rv	MIC	>6.25 µg/mL
Cn1c(=O)c2c(nc3n2CCC(=O)N3)n(C)c1=O	6.25 µg/mL	-	resazurin	H37Rv	inhibition	-9%
CC1=C(O)c2cccc(O)c2C(=O)C1=O	-	-	resazurin	H37Rv (S-MTB)	MIC	>100 µg/mL
C[C@@H]1Cn2cc(C(=O)O)c(=O)c3cc(F)c(N4CCN(/C(N)=N/C(N)=NCCCCCCN=C(N)/N=C(\N)N5CCN(c6c(F)cc7c(=O)c(C(=O)O)cn8c7c6O[C@@H](C)C8)CC5)CC4)c(c32)O1	-	-	broth dilution	H27Rv	MIC	1.25 µg/mL
COc1cc2occ(-c3ccc(O)cc3)c(=O)c2c(OC)c1O	-	-	resazurin	H37Rv	MIC bound	>6.25 µg/mL
CC1OC(=O)c2c(N)cccc21	-	-	-	H37Rv	MIC	1000 µg/mL
CC1=C(C(=O)Nc2ccccc2Cl)C(c2ccc(Cl)cc2)C(C(=O)Nc2ccccc2Cl)=C(C)N1	-	-	-	H37Rv	MIC	>12.5 µg/mL
CCSC(SCC)[C@@H](SCC)[C@@H](O)[C@H](O)[C@H](O)CO	-	-	-	H37Rv	MIC bound	>6.25 µg/mL
Nc1ccccc1O.O.O=C(O)C1[O][Sb][O]C1C(=O)O	-	-	-	H37Ra	MIC	12.5 µM
Cc1ccc(S(=O)(=O)NNC(=O)c2cccnc2)cc1	-	-	BACTEC	H37Rv	MIC bound	>12.5 µg/mL
COc1ccc2cc(CN(C(=O)Nc3ccc(F)cc3F)C3CCCCCC3)c(=O)[nH]c2c1	-	7 d	broth dilution	H37Rv (ATCC 27294)	MIC	>64 µg/mL
CC1=C(C(=O)Nc2cc(C)ccc2C)C(c2cccc([N+](=O)[O-])c2)C(C(=O)Nc2cc(C)ccc2C)=C(C)N1	-	-	-	H37Rv	MIC	>6.25 µg/mL
NCCO/C=C/[C@H](N)C(=O)O	-	-	BACTEC	H37Rv	MIC	≥12.5 µg/mL
COc1ccn2nc(C)c(C(=O)NCc3ccc(-c4ccc(OC(F)(F)F)cc4)cc3F)c2c1	-	-	fluorescence	H37Rv	MIC	0.007 µg/mL
CC(=O)O.O=C1NC2(CCN(Cc3ccccc3)CC2)Nc2ccccc21	-	-	BACTEC	H37Rv	MIC bound	>12.5 µg/mL
CCN(CC)CCNC(=O)c1cc(Cl)cc([N+](=O)[O-])c1	-	-	-	H37Rv	MIC	50 µg/mL
c1ccc2c(c1)nc1cc(NC3CCCCC3)c(=NC3CCCCC3)cc-1n2C1CCCCC1	-	-	-	EMB-R	MIC	3.1 µg/mL
Cc1cc(C)c2c(=O)n(CC(=O)N3CCN(c4ccccc4)CC3)sc2n1	-	-	BACTEC	H37Rv	EC50	<12.5 µg/mL
O=C(Nc1ccc(C(F)(F)F)cc1)c1cc(Cl)ccc1O	-	14 d	broth dilution	H37Rv	MIC100	2 µM
c1ccc(/C(=N/Nc2nc3ccccc3s2)c2ccccn2)cc1	-	-	-	H37Ra	MIC	1.56 µM
CN(C)CCC(c1ccc(Cl)cc1)c1ccccn1	-	-	-	H37Ra	MIC	64 µg/mL
COC1OC2COC(C)(C)OC2C2OC(C)(C)OC12	12.5 µg/mL	-	BACTEC	H37Rv	inhibition	0%
CC1OC(=O)c2cccc(O)c21	-	-	-	H2	MIC	300 µg/mL
Nc1nc(=O)[nH]s1	12.5 µg/mL	-	BACTEC	H37Rv	inhibition	99%
O=[N+]([O-])c1ccc(/C=N/Nc2nc(Nc3ccccc3)nc(Nc3ccccc3)n2)o1	-	-	-	H37Rv	MIC100	0.0625 µg/mL
COc1ccc2c(c1OC)C(Cc1ccccc1)[N+]1(C)CCc3cc4c(cc3C1C2)OCO4.[I-]	-	-	BACTEC	H37Rv	MIC	≥12.5 µg/mL
CCn1cc(C(=O)O)c(=O)c2cc(F)c(N3CCN(C)CC3)cc21	-	pH 6.8	-	-	EC50	<10 µg/mL
O=C(NN1C(=O)CSC1c1ccc(O)cc1)c1ncc2cc(C(F)(F)F)ccc2n1	-	-	visual reading	H37Rv	MIC	1.12 µM
O=C(Nc1ccc(Cl)cc1)Nc1nnc2nc(C(C(=O)c3ccc(F)cc3)c3nc4nnc(NC(=O)Nc5ccc(Cl)cc5)n4[nH]c3=O)c(=O)[nH]n12	-	-	BACTEC	H37Rv	MIC bound	>12.5 µg/mL
COC(=O)C1=C(C)N(c2cccc(C)c2)C(C)=C(C(=O)OC)C1c1ccc(O)c(OC)c1	-	-	-	H37Rv	MIC	>6.25 µg/mL
Cc1cc(C)c2c(=O)n(CN3CCN(c4ccccc4)CC3)sc2n1	-	-	BACTEC	H37Rv	EC50	>12.5 µg/mL
CC1=CC(=O)c2c(ccc(C3=C(C)C(=O)c4cccc(O)c4C3=O)c2O)C1=O	-	-	resazurin	H37Rv (S-MTB)	MIC	50 µg/mL
CC1OC(=O)c2c(O)cccc21	-	-	-	H37Rv	MIC	1000 µg/mL
COC(=O)C1=C(C)N(c2ccc(OC)cc2)C(C)=C(C(=O)OC)C1c1ccccc1	-	-	-	H37Rv	MIC	>6.25 µg/mL
Cc1cc(C)c2c(=O)n(CN3CCN(C/C=C/c4ccccc4)CC3)sc2n1	-	-	BACTEC	H37Rv	EC50	>12.5 µg/mL
COc1ccc(C(OCCN(C)C)c2ccccc2)cc1	-	-	-	H37Ra	MIC	64 µg/mL
O=C(Oc1cc(Cl)ccc1C(=O)Nc1cccc(C(F)(F)F)c1)c1cnccn1	-	14 d	broth dilution	H37Rv	MIC100	1 µM
CN1CCCCC(n2nc(Cc3ccc(Cl)cc3)c3ccccc3c2=O)CC1	-	-	-	H37Rv	MIC	32 µg/mL
C[C@@H]1[C@H](O)[C@@H](C)/C=C/C=C/C=C/C=C/C=C/C=C/C=C/[C@H](O[C@@H]2O[C@H](C)[C@@H](O)[C@H](N)[C@@H]2O)C[C@@H]2O[C@](O)(C[C@@H](O)C[C@@H](O)[C@H](O)CC[C@@H](O)C[C@@H](O)CC(=O)O[C@H]1C)C[C@H](O)[C@H]2C(=O)O	-	-	resazurin / visual reading	H37Ra	MIC	50 µg/mL
CC(=O)c1ccccc1C1SCC(=O)N1NC(=O)c1ncc2cc(C(F)(F)F)ccc2n1	-	-	visual reading	H37Rv	MIC	3.07 µM
COc1ccn2nc(C)c(C(=O)NCc3ccc(-c4ccc(OC(F)(F)F)cc4)nc3)c2c1	-	-	fluorescence	H37Rv	MIC	<0.02 µg/mL
O=C(CCCC(=O)NNC(=O)Nc1ccc(N=Nc2ccccc2)cc1)NNC(=O)Nc1ccc(N=Nc2ccccc2)cc1	12.5 µg/mL	-	BACTEC	H37Rv	inhibition	3%
CCN(CC)CCNC(=O)c1cc([N+](=O)[O-])cc([N+](=O)[O-])c1	-	-	-	N353	MIC	5 µg/mL
O=C(Oc1cc(Cl)ccc1C(=O)Nc1ccc(Cl)c(Cl)c1)c1cnccn1	-	14 d	broth dilution	H37Rv	MIC100	1 µM
CC(=O)NC(CCC(=O)C=[N+]=[N-])C(=O)O	-	-	BACTEC	H37Rv	MIC bound	>12.8 µg/mL
CC(NC(=O)c1ccccc1C(F)(F)F)c1nnc(SCCOc2ccc(Cl)cc2)n1C	-	-	broth dilution	H37Rv (ATCC 27294)	MIC	>32 µg/mL
CC1OC(=O)c2cccc(N)c21	-	-	-	H37Rv	MIC	1000 µg/mL
Cc1cc(C)c2c(OCCCCN3CCN(c4ncccn4)CC3)nsc2n1	12.5 µg/mL	-	BACTEC	H37Rv	inhibition	0%
C/C=C1\C(=O)O[C@]23C=C[C@@H]4C(C(=O)OC)=CO[C@H](O[C@@H]12)[C@@H]43	-	-	MTT	H37Rv	MBC	4.1 µg/mL
CC12C(=O)c3cccc(O)c3C(=O)C1CC13OC12C(=O)c1c(O)cccc1C3=O	-	-	resazurin	CIBIN 99 (MDR-MTB)	MIC	12.5 µg/mL
O=C(NN1C(=O)CSC1c1ccc(F)cc1F)c1ncc2cc(C(F)(F)F)ccc2n1	-	-	visual reading	H37Rv	MIC	1.95 µM
C[C@H]1CCC[C@]2(C)C[C@H]3OC(=O)C(O)(CO)[C@H]3C=C12	-	-	-	H37Rv	MIC	>128 µg/mL
CCN(CC)CCNC(=O)c1ccc([N+](=O)[O-])cc1	-	-	-	N73	MIC	50 µg/mL
COc1ccn2nc(C)c(C(=O)NCc3ccc(-c4ccc(OC(F)(F)F)cc4)c(C)c3)c2c1	-	-	fluorescence	H37Rv	MIC	<0.02 µg/mL
C=C1C(=O)O[C@@H]2C[C@@]3(C)C=CC(=O)C(=C)[C@@H]3C[C@H]12	-	-	-	H37Rv	MIC	16 µg/mL
CCCCOC(=O)c1ccc(Nc2cc(C)nc3ccc(OC)cc23)cc1	-	-	-	H37Rv	MIC100	2 µg/mL
CO[C@H]1/C=C/O[C@@]2(C)Oc3c(C)c(O)c4c(O)c(c(/C=N/N5CCN(C)CC5)c(O)c4c3C2=O)NC(=O)/C(C)=C\C=C\[C@H](C)[C@H](O)[C@@H](C)[C@@H](O)[C@@H](C)[C@H](OC(C)=O)[C@@H]1C	-	-	resazurin	H37Rv (S-MTB)	MIC	0.06 µg/mL
COc1ccc(NC(=O)NNC(=O)CCCC(=O)NNC(=O)Nc2ccc(OC)cc2)cc1	-	-	BACTEC	H37Rv	MIC	≥12.5 µg/mL
C[C@H]1CC(=O)c2c(O)cccc2[C@H]1O	-	-	resazurin	H37Rv (S-MTB)	MIC	>100 µg/mL
O=C(Nc1ccc(C(F)(F)F)cc1)c1cc(Br)ccc1O	-	14 d	broth dilution	H37Rv	MIC100	1 µM
CN1CCC(=C2c3ccccc3C=Cc3ccccc32)CC1	-	-	-	H37Rv	MIC	32 µg/mL
C=C1C(=O)O[C@@H]2C[C@@]3(C)CCC=C(C)[C@@H]3C[C@H]12	-	-	-	H37Rv	MIC	128 µg/mL
C=C1C(=O)[C@]23C[C@H]1CC[C@H]2[C@@]12CO[C@H](O)[C@@H]1C(C)(C)[C@@H](O)C[C@@H]2OC3=O	-	-	BACTEC	H37Rv	MIC bound	>12.5 µg/mL
O=C1C2SSC(C(=O)N2Cc2ccccc2)N1Cc1ccccc1	-	-	turbidity	-	EC50	2.3 µM
CN(/N=C/c1ccccc1O)c1ccc2ccccc2n1	-	-	-	H37Ra	MIC	12.5 µM
CC1(C)C2CCC1(C)C1(C2)OC(CCl)CS1	12.5 µg/mL	-	BACTEC	H37Rv	inhibition	4%
Ic1ccc2c(c1)N(c1ccccc1)c1cc(Nc3ccc4nc5ccc(I)cc5[n+](-c5ccccc5)c4c3)ccc1N2	-	-	-	H37Ra	MIC	12.5 µM
C/C=C/C1=CC=C/C(=C2\C(=O)CNC2=O)O1	-	-	resazurin / visual reading	H37Ra	MIC	3.1 µg/mL
O=C(Nc1ccc(Cl)c(Cl)c1)c1cc(Cl)ccc1O	-	14 d	broth dilution	H37Rv	MIC100	4 µM
COc1cc(C(=O)OC2CC34CCNC35CC(OC5(OC)C2O)c2cc3c(cc24)OCO3)ccc1O	12.5 µg/mL	-	BACTEC	H37Rv	inhibition	12%
C=C1CCC[C@]2(C)C[C@H]3OC(=O)C(C)[C@H]3C[C@@H]12	-	-	-	H37Rv	MIC	>128 µg/mL
COc1ccc(C2SCC(=O)N2NC(=O)c2ncc3cc(C(F)(F)F)ccc3n2)cc1	-	-	visual reading	H37Rv	MIC	2.21 µM
O=P1(c2ccccc2)Nc2ccccc2N1c1ccccc1	-	-	resazurin	H37Rv	MIC bound	>6.25 µg/mL
CN(C)[C@@H]1C(=O)C(C(N)=O)=C(O)[C@@]2(O)C(=O)C3=C(O)c4c(O)ccc(Cl)c4[C@@H](O)[C@H]3C[C@@H]12	-	-	-	H37Ra	MIC	1.56 µM
O=Nc1c(-c2ccccc2)nc2cc(-c3ccccc3)[nH]n12	-	-	BACTEC	H37Rv	MIC bound	>12.5 µg/mL
C[n+]1cc2c(cn3c4ccccc4ccc23)c2ccccc21.[I-]	-	-	resazurin / visual reading	H37Rv	MIC	6.2 µg/mL

Repeating the final 4 entries:

SMILES,dose,setting,method,strain,measure,result
O=P1(c2ccccc2)Nc2ccccc2N1c1ccccc1,-,-,resazurin,H37Rv,MIC bound,>6.25 µg/mL
CN(C)[C@@H]1C(=O)C(C(N)=O)=C(O)[C@@]2(O)C(=O)C3=C(O)c4c(O)ccc(Cl)c4[C@@H](O)[C@H]3C[C@@H]12,-,-,-,H37Ra,MIC,1.56 µM
O=Nc1c(-c2ccccc2)nc2cc(-c3ccccc3)[nH]n12,-,-,BACTEC,H37Rv,MIC bound,>12.5 µg/mL
C[n+]1cc2c(cn3c4ccccc4ccc23)c2ccccc21.[I-],-,-,resazurin / visual reading,H37Rv,MIC,6.2 µg/mL